A mixed list of measured activities; the numbers were collected in NIAID ChemDB.

Shared fields: tests in culture; species: Mycobacterium avium

ECn is the concentration giving n% inhibition of infection, replication or growth. Inhibition is in % at the dose shown (toxicity tests: loss of growth or viability). Two numbers with a dash give a range or band. A number after MIC or MFC names an inhibition level or a share of isolates. Rows are shuffled and stem from different studies. Blank or dashed fields: not listed here.

O=C(NNC(=O)c1ccncc1)Nc1ccc(C(F)(F)F)cc1 ; strain or isolate: MY330/88 ; method: broth dilution ; conditions: 14 d ; measure: MIC100 ; result: >125 µM
N/C(=N\NC(CC(=O)c1ccc(Cl)c(Cl)c1)c1cccnc1)c1ccccn1 ; strain or isolate: 17 strains ; measure: MIC50 ; result: 32 µg/mL
CN[C@@H]1[C@H](O[C@H]2[C@H](O[C@H]3[C@H](O)[C@@H](O)[C@H](N=C(N)N)[C@@H](O)[C@@H]3N=C(N)N)O[C@@H](C)[C@]2(O)C=O)O[C@@H](CO)[C@H](O)[C@H]1O ; strain or isolate: 100 strains ; measure: MIC90 ; result: 5.8 µg/mL
CCCCCCCNC(=O)NNC(=O)c1ccncc1 ; strain or isolate: MY330/88 ; method: broth dilution ; conditions: 21 d ; measure: MIC100 ; result: 62.5 µM
CC1COc2c(N3CCN(C)CC3)c(F)cc3c(=O)c(C(=O)O)cn1c23 ; strain or isolate: ATCC 25291 ; measure: Mean MIC ; result: 6.25 µg/mL
CCCCc1ccc(NC(=O)NNC(=O)c2ccncc2)cc1 ; strain or isolate: MY330/88 ; method: broth dilution ; conditions: 21 d ; measure: MIC100 ; result: 125 µM
Cc1onc(-c2ccccc2Cl)c1C(=O)N[C@@H]1C(=O)N2[C@@H]1SC(C)(C)[C@@H]2C(=O)O ; strain or isolate: ATCC 25291 ; measure: Mean MIC ; result: >213 µg/mL
O=C(NNC(=O)c1ccncc1)Nc1c(Cl)cc(Cl)cc1Cl ; strain or isolate: MY330/88 ; method: broth dilution ; conditions: 21 d ; measure: MIC100 ; result: >125 µM
O=C(O)c1cn(C2CC2)c2cc(N3CCN(Cc4ccccc4)CC3)c(F)cc2c1=O ; measure: MIC50 ; result: 4 µg/mL
CC[C@H]1OC(=O)[C@H](C)[C@@H](O[C@H]2C[C@@](C)(OC)[C@@H](O)[C@H](C)O2)[C@H](C)[C@@H](O[C@@H]2O[C@H](C)C[C@H](N(C)C)[C@H]2O)[C@](C)(OC)C[C@@H](C)C(=O)[C@H](C)[C@@H](O)[C@]1(C)O ; strain or isolate: 3010 ; measure: MBC ; result: 32 µg/mL
Cc1cn([C@H]2C=C[C@@H](CO)O2)c(=O)[nH]c1=O ; strain or isolate: ATCC 25291 ; measure: inhibition ; tested at: 50 µg/mL ; result: 25%
O=C(NNC(=O)c1ccncc1)Nc1ccc(F)c(C(F)(F)F)c1 ; strain or isolate: MY330/88 ; method: broth dilution ; conditions: 14 d ; measure: MIC100 ; result: >125 µM
CC(=O)O[C@H]1C[C@H](n2cc(C(F)CCl)c(=O)[nH]c2=O)O[C@@H]1CO ; strain or isolate: ATCC 25291 ; measure: EC90 ; result: 1–5 µg/mL
N/C(=N\NC(CC(=O)c1ccc(Cl)cc1)c1ccccn1)c1ccccn1 ; strain or isolate: 17 strains ; measure: MIC50 ; result: 32 µg/mL
OCNC(=S)c1cnccn1 ; strain or isolate: ATCC 25291 ; measure: MBC ; result: 50 µg/mL
CCCCOc1ccc(N2CCN(c3ccc(CNC(=O)c4c(CC)nc5ccc(Cl)cn45)c(F)c3)C[C@@H]2C)cc1.Cl ; method: fluorescence ; measure: inhibition ; tested at: 0.019 µM ; result: 85%
N/C(=N\NC(CC(=O)c1cccc(Cl)c1)c1ccncc1)c1ccccn1 ; strain or isolate: 17 strains ; measure: MIC50 ; result: 16 µg/mL
Cc1nc2ccc(F)cn2c1C(=O)NCc1ccc(N2CCN(c3ccc(OC(F)(F)F)cc3)C(C)(C)C2)c(F)c1 ; method: fluorescence ; measure: inhibition ; tested at: 0.068 µM ; result: 85%
CCS/C(N)=N\N=C\c1ccc(C(F)(F)F)cc1 ; strain or isolate: Clinical isolates ; measure: MIC50 ; result: 3.12 µg/mL
N/C(=N\NC(CC(=O)c1ccc(Cl)cc1Cl)c1ccccn1)c1ccccn1 ; strain or isolate: 17 strains ; measure: MIC50 ; result: 16 µg/mL
CCCN1CCN(c2cc3c(cc2F)c(=O)c(C(=O)O)cn3C2CC2)CC1 ; measure: MIC50 ; result: 1 µg/mL
O=c1[nH]c(=O)n([C@H]2O[C@@H](CO)[C@H](O)[C@@H]2O)cc1I ; strain or isolate: ATCC 25291 ; measure: inhibition ; tested at: 50 µg/mL ; result: 0%
NC[C@H]1O[C@H](O[C@H]2[C@H](O)[C@@H](O[C@H]3O[C@H](CO)[C@@H](O)[C@H](N)[C@H]3O)[C@H](N)C[C@@H]2N)[C@H](O)[C@@H](O)[C@@H]1O ; strain or isolate: ATCC 25291 ; measure: Mean MIC ; result: 2.5 µg/mL
CCc1nc2ccc(Cl)cn2c1C(=O)NCc1ccc(N2CCN(c3ccc(OC(F)(F)F)cc3)[C@@H](C)C2)c(F)c1F.Cl ; method: fluorescence ; measure: inhibition ; tested at: 0.011 µM ; result: 85%
CCCCCCCCOC(=O)c1cnccn1 ; strain or isolate: ATCC 25291 ; measure: MBC ; result: 200 µg/mL
O=c1[nH]c(=O)n([C@@H]2O[C@H](CO)[C@@H](O)[C@H]2F)cc1I ; strain or isolate: ATCC 25291 ; measure: EC50 ; result: >50 µg/mL
N/C(=N\NC(CC(=O)c1ccccc1)c1cccnc1)c1ccccn1 ; strain or isolate: 17 strains ; measure: MIC90 ; result: 320 µg/mL
CCc1nc2cc(F)ccn2c1C(=O)NCc1ccc(N2CCN(c3ccc(OC(F)(F)F)cc3)[C@@H](CC)C2)c(F)c1.Cl ; method: fluorescence ; measure: inhibition ; tested at: 0.0065 µM ; result: 85%
CCc1cc(C(N)=S)ccn1 ; strain or isolate: 168-4 ; measure: MBC ; result: 80 µg/mL
COc1ccn2nc(C)c(C(=O)NCc3cc(F)c(N4CCC(c5ccc(OC(F)(F)F)cc5)CC4)c(F)c3)c2c1.Cl ; method: fluorescence ; measure: inhibition ; tested at: 0.019 µM ; result: 85%
Cc1cn([C@H]2C[C@H](N=[N+]=[N-])[C@@H](CO)O2)c(=O)[nH]c1=O ; strain or isolate: ATCC 25291 ; measure: EC50 ; result: >50 µg/mL
CCc1nc2cc(F)ccn2c1C(=O)NCc1cc(F)c(N2CCN(c3ccc(OC(F)(F)F)cc3)[C@@H](C)C2)c(F)c1.Cl ; method: fluorescence ; measure: inhibition ; tested at: 0.0022 µM ; result: 85%
O=c1[nH]c(=O)n([C@@H]2O[C@H](CO)[C@@H](O)[C@H]2O)cc1F ; strain or isolate: ATCC 25291 ; measure: EC50 ; result: >50 µg/mL

3 of the rows above, restated:

SMILES | strain or isolate | method | conditions | measure | tested at | result
O=C(NNC(=O)c1ccncc1)Nc1ccc(F)c(C(F)(F)F)c1 | MY330/88 | broth dilution | 14 d | MIC100 | - | >125 µM
O=C(NNC(=O)c1ccncc1)Nc1c(Cl)cc(Cl)cc1Cl | MY330/88 | broth dilution | 21 d | MIC100 | - | >125 µM
CCc1cc(C(N)=S)ccn1 | 168-4 | - | - | MBC | - | 80 µg/mL